Measured values from several laboratories, pooled; numbers as filed in NIAID ChemDB.

All rows: tests in culture; species: HIV-1

Blank or dashed fields: not listed here.

structure	method	cells	strain	endpoint	changes	value
CC(C)[C@H](NC(=O)N(C)C)C(=O)N[C@@H](Cc1ccccc1)C[C@H](O)[C@H](Cc1ccccc1)NC(=O)OCc1cncs1	cytopathic effect / MTT	MT-4		EC50		1.8 µM
COc1ccc(CN[C@@H](C(=O)N[C@H](C(=O)NCCN2CCOCC2)C(C)C)[C@H](O)[C@H](Cc2ccccc2)NC(=O)[C@@H](NC(=O)OCc2ccccc2)C(C)C)cc1	cytopathic effect / MTT	MT-4	IIIB	EC50		1.09 µM
NS(=O)(=O)c1ccc(Nc2c3ccccc3nc3c(C(=O)NC(CO)(CO)CO)cccc23)cc1	cytopathic effect / XTT	CEM	RF	EC50		>3.4 µM
Cc1cn([C@H]2C[C@H](N=[N+]=[N-])[C@@H](CO)O2)c(=O)[nH]c1=O	p24 / RT activity	PBMC	NL4-3	EC50		0.00504 µM
CN(C)C1C(=O)C(C(=O)NCNCCCO)=C(O)C2(O)C(=O)C3=C(O)c4c(O)cccc4C(C)(O)C3CC12	cytopathic effect / XTT	CEM	RF	EC50		120 µM
Cc1cn([C@H]2C[C@H](N=[N+]=[N-])[C@@H](COC(=O)[C@@H]3OC(C)(C)O[C@@]34CC[C@H]3[C@@H]5CCC6=CC(=O)C=C[C@]6(C)[C@H]5[C@@H](O)C[C@@]34C)O2)c(=O)[nH]c1=O	cytopathic effect / XTT	CEM + CEM-SS		EC50		0.065 µM
CC(=O)O[C@@H]1C(=O)C2=C(C(=O)C[C@H]3C(C)(C)[C@@H](O)CC[C@]23C)[C@]2(C)C(=O)C[C@H]([C@@H](C)CC(=O)C[C@@H](C)C(=O)O)[C@@]12C	cytopathic effect / microscopy	MT-4		EC50		>1000 µM
C#C[C@]1(CO)O[C@@H](n2cnc3c(N)nc(F)nc32)C[C@@H]1O				EC50	RT-M184V	0.0031 µM
CC(C)C(C)/C=C/[C@@H](C)[C@H]1CCC2C3=C[C@@H](O)[C@@]4(O)C[C@@H](O)CC[C@]4(C)C3CC[C@@]21C	cytopathic effect / microscopy	MT-4		EC50		>15.6 µM
COCCOCCOCCOCCOCCOCCOCCOC(=O)CCC(=O)O[C@@H]1Cc2ccccc2[C@@H]1NC(=O)[C@H](Cc1ccccc1)C[C@H](O)CN1CCN(Cc2cccnc2)C[C@H]1C(=O)NC(C)(C)C	cytopathic effect / MTT	MT-4	IIIB	EC50		0.19 µM
CCn1cc(C(=O)O)c(=O)c2cc(I)c(Oc3ccnc(Nc4ccc(C#N)cc4)n3)cc21	MTT	MT-4	IIIB	EC50		0.017 µM
O=C(CSc1sc(Cl)nc1-c1ccc(Br)cc1Br)Nc1ccccc1Cl	MTT	MT-4	IIIB	EC50		6.59 µM
CO[C@H]1O[C@@H](n2ccc(=O)[nH]c2=O)C[C@@H]1N=[N+]=[N-]	trypan blue	MT-4	LAV	EC50		0.36 µM
CCCCCCCCCCCCCCC[C@@H](O)[C@@H](N)CO	luciferase	TZM-bl	HXB2	EC50		>1.5 µM
Cn1cc(C(=O)O)c(=O)c2cc(F)c(N3CC=C(c4ccccc4)CC3)c(C(F)(F)F)c21	cytopathic effect / MTT	MT-4	IIIB	EC50		0.2 µM
COc1ccc(CN[C@@H](C(=O)N[C@H](C(=O)NCCn2ccnc2)C(C)C)[C@H](O)[C@H](Cc2ccccc2)NC(=O)[C@@H](NC(=O)OCc2ccccc2)C(C)C)cc1	cytopathic effect / MTT	MT-4	IIIB	EC50		1.6 µM
Cc1cc([N+](=O)[O-])ccc1NC(=O)CSc1sc(Cl)nc1-c1ccc(Br)cc1Br	MTT	MT-4	IIIB	EC50	K103N	38.95 µM
CN(C)[C@@H]1C(=O)C(C(=O)NCNC2(C(=O)[O-])CCCC2)=C(O)[C@@]2(O)C(=O)C3=C(O)c4c(O)cccc4[C@@](C)(O)[C@H]3C[C@@H]12.[Na+]	cytopathic effect / XTT	CEM	RF	EC50		0.6 µM
CC(C)Nc1cccnc1N1CCN(C(=O)c2cc3cc(NS(C)(=O)=O)ccc3[nH]2)CC1	MTT	MT-4	IIIB	EC50	L100I	2.23 µM
CCCn1cc(C(=O)O)c(=O)c2cc(I)c(Oc3ccnc(Nc4ccc(C#N)cc4)n3)cc21	MTT	MT-4	IIIB	EC50	K103N Y181C NNRTI-resistant	1.67 µM
CC(=O)OC1C(=O)C2=C(C(=O)CC3C(C)(C)[C@@H](O)CC[C@]23C)[C@]2(C)[C@H](O)C[C@H]([C@H](C)CC(=O)CC(C)C(=O)O)[C@@]12C	cytopathic effect / microscopy	MT-4		EC50		>1000 µM
N#Cc1ccc(Nc2nccc(Oc3cc4c(cc3Br)c(=O)c(C(=O)O)cn4C3CC3)n2)cc1	MTT	MT-4	IIIB	EC50	K103N Y181C NNRTI-resistant	>14.99 µM
Cc1cn([C@H]2C[C@H](N=[N+]=[N-])[C@@H](CO)O2)c(=O)[nH]c1=O	MTT	MT-4	NL4-3	EC50		0.02 µM
Nc1nc2c(ncn2[C@H]2CC[C@@H](CO)O2)c(=O)[nH]1	trypan blue	MT-4	LAV	EC50		7.6 µM
Cn1c(CN(CCN2CCCCC2)CC2CCCN(C3CCCC3)C2)nc2ccccc21	p24	PBMC	NL4-3	EC50		1 µM
C/C(=N\O)c1cccc(CN2C(=O)N(Cc3cccc(/C(C)=N/O)c3)[C@H](Cc3ccccc3)[C@H](O)[C@@H](O)[C@H]2Cc2ccccc2)c1		MT-2	RF	EC50		<0.002 µM
CCCCCCCCCCCCCC(=O)O[C@@H](C[C@@H](Cc1ccccc1)C(=O)N[C@H]1c2ccccc2C[C@H]1OC(=O)CCCCCCCCCCCCC)CN1CCN(Cc2cccnc2)C[C@H]1C(=O)NC(C)(C)C	cytopathic effect / MTT	CEM + CEM-SS	LAI	EC50		10 µM
CC(C)Cn1cc(C(=O)O)c(=O)c2cc(Br)c(Oc3ccnc(Nc4ccc(C#N)cc4)n3)cc21	MTT	MT-4	IIIB	EC50	K103N Y181C NNRTI-resistant	≥7.99 µM
CC(C)C(NC(=O)OC(C)(C)C)C(=O)O[C@@H](C[C@@H](Cc1ccccc1)C(=O)N1[C@H]2c3ccccc3C[C@H]2OC1(C)C)CN1CCN(Cc2cccnc2)C[C@H]1C(=O)NC(C)(C)C	cytopathic effect / MTT	MT-4	IIIB	EC50		>10 µM
CC(C)=CCN1c2cc(Cl)cc3[nH]c(=S)n(c23)C[C@@H]1C		MT-4		EC95	RT-L74V K103N	0.8 µM
CC(C)[C@H](NC(=O)OCc1ccccc1)C(=O)N[C@@H](Cc1ccccc1)[C@@H](O)[C@@H](NCc1ccccc1)C(=O)N[C@H](C(=O)NCc1nc2ccccc2[nH]1)C(C)C	cytopathic effect / MTT	MT-4	IIIB	EC50		0.025 µM
Nc1nc(=O)n([C@H]2CO[C@@H](CO)S2)cc1F	p24	Jurkat cells	IIIB	EC50		6 µM
Cc1cc(C)cc(Cc2c(CC(C)C)c(C)[nH]c(=O)c2N(C)C)c1	cytopathic effect / MTT	MT-4	Recombinant	EC50	RT-Y181C	1.259 µM
CC(=O)c1cccc(CN2C(=O)N(Cc3cccc(C(C)=O)c3)[C@H](Cc3ccccc3)[C@H](O)[C@@H](O)[C@H]2Cc2ccccc2)c1		MT-2	RF	EC50		<0.039 µM
CCc1c(C)[nH]c(=O)c(-n2cccc2)c1Cc1cc(C)cc(C)c1	cytopathic effect / MTT	MT-4	Recombinant	EC50	RT-Y188L	1.995 µM
COc1cc(OC)nc(N2C(=O)CSC2c2c(Cl)cccc2Cl)n1	luciferase	TZM-bl	N119	EC50		1.17 µg/mL
Nc1ncc(CN(CCN2CCCCC2)CC2CCCN(C3CCCC3)C2)cn1	p24	PBMC	NL4-3	EC50		6.7 µM
CC(C)[C@H](NC(=O)N(C)Cc1ccccn1)C(=O)N[C@@H](Cc1ccccc1)[C@@H](O)[C@H](O)[C@H](Cc1ccccc1)NC(=O)[C@@H](NC(=O)N(C)Cc1ccccn1)C(C)C	cytopathic effect / MTT	MT-4	IIIB	EC50		1.54 µM
Nc1cccc(CN2C(=O)N(Cc3cccc(N)c3)[C@H](Cc3ccccc3)[C@H](O)[C@@H](O)[C@H]2Cc2ccccc2)c1		MT-2	RF	EC50		<0.13 µM
Cc1cn([C@H]2C[C@H](N=[N+]=[N-])[C@@H](CO)O2)c(=O)[nH]c1=O	p24	PBMC	BAL R5	EC50		0.013 µM
Cc1ncc(COP(=O)(O)O)c(C=O)c1O	cytopathic effect / XTT	MT-2	IIIB	EC50		>100 µg/mL
Cc1cn([C@H]2CC[C@@H](CO)O2)c(=O)[nH]c1=O	trypan blue	MT-4	LAV	EC50		0.2 µM
C#C[C@]1(CO)O[C@@H](n2cnc3c(N)ncnc32)C=C1F	RT activity	PBMC	LAV	EC50		25.1 µM
CCCCCCCCCCCCCC(=O)O[C@@H]1Cc2ccccc2[C@@H]1NC(=O)[C@H](Cc1ccccc1)C[C@H](O)CN1CCN(Cc2cccnc2)C[C@H]1C(=O)NC(C)(C)C	cytopathic effect / MTT	CEM + CEM-SS	LAI	EC50		0.034 µM
CO[C@@H]1C=C2C3CC[C@H]([C@H](C)/C=C/C(C)C(C)C)[C@@]3(C)CCC2[C@@]2(C)CC[C@H](O)C[C@]12O	cytopathic effect / microscopy	MT-4		EC50		>31.3 µM
COC(=O)c1cccc(CN2C(=O)N(Cc3cccc(-c4ccn[nH]4)c3)[C@H](Cc3ccccc3)[C@H](O)[C@@H](O)[C@H]2Cc2ccccc2)c1		MT-2	RF	EC50		<0.032 µM
C/C=C/c1cc(=O)c2c(CC(C)=O)cc(O)cc2o1	MTT	C8166	IIIB	EC50		1.87 µg/mL
Cc1cn([C@H]2C[C@H](N=[N+]=[N-])[C@@H](COP(=O)(O)O)O2)c(=O)[nH]c1=O	MTT	MT-4		EC50		0.001 µM
Nc1nc(-c2ccc(Br)cc2Br)c(SCC(=O)Nc2ccccc2F)s1	MTT	MT-4	IIIB	EC50		>24.94 µM
CC(C)c1ccc(C(c2ccc(OCC(=O)O)cc2)c2ccc(C(C)C)cc(=O)c2O)c(O)c(=O)c1	cytopathic effect / XTT	CEM	RF	EC50		>11.7 µM
C=C(C)[C@]12C[C@@H](COc3ccccc3)[C@@]34OC5(OC1[C@@H]3[C@@H]1O[C@]1(CO)[C@@H](O)[C@]1(O)[C@@H](Oc3ccccc3)[C@@H](C)[C@H]([C@H](C)CCCCC[C@@H]5O)[C@]14C)O2	p24 / ELISA	PBMC	JR-CSF	EC50		0.0000205 µM
N#Cc1ccc(Nc2nccc(Oc3cc4c(cc3Br)c(=O)c(C(=O)O)cn4C3CCCC3)n2)cc1	MTT	MT-4	IIIB	EC50		0.51 µM
O/N=C1\C(=C\c2ccc3c(c2)OCO3)CCCC1C(NO)c1ccc2c(c1)OCO2	cytopathic effect / XTT	CEM	RF	EC50		>127 µM
CC(C)(C)n1cc(C(=O)O)c(=O)c2cc(Br)c(Oc3ccnc(Nc4ccc(C#N)cc4)n3)cc21	MTT	MT-4	IIIB	EC50		1.57 µM
Nc1ncnc2c1ncn2[C@H]1C=C[C@@H](CO)O1	trypan blue	MT-4	LAV	EC50		>125 µM
COc1cc(OC)nc(N2C(=O)CSC2c2c(Cl)cccc2[N+](=O)[O-])n1	p24 / ELISA	PBMC	N119	EC50		1.6 µg/mL
O=C(CSc1sc(Cl)nc1-c1ccc(Br)cc1Br)Nc1ccccc1F	MTT	MT-4	IIIB	EC50		>33.18 µM
Cc1cn([C@H]2C=C[C@@H](CO)O2)c(=O)[nH]c1=O	trypan blue	MT-4	LAV	EC50		0.01 µM

For reference, 4 entries again:

structure | method | cells | strain | endpoint | changes | value
Cc1cn([C@H]2C=C[C@@H](CO)O2)c(=O)[nH]c1=O | trypan blue | MT-4 | LAV | EC50 |  | 0.01 µM
CCCCCCCCCCCCCCC[C@@H](O)[C@@H](N)CO | luciferase | TZM-bl | HXB2 | EC50 |  | >1.5 µM
Nc1nc(=O)n([C@H]2CO[C@@H](CO)S2)cc1F | p24 | Jurkat cells | IIIB | EC50 |  | 6 µM
C/C(=N\O)c1cccc(CN2C(=O)N(Cc3cccc(/C(C)=N/O)c3)[C@H](Cc3ccccc3)[C@H](O)[C@@H](O)[C@H]2Cc2ccccc2)c1 |  | MT-2 | RF | EC50 |  | <0.002 µM

Conditions beyond the fields shown may differ between rows. ECn is the concentration giving n% inhibition of infection, replication or growth.